Target: GPNMB on the surface of glioma cells (D392 MG, D54 MG) (human) (UniProt Q14956)
Test: cell-based or functional assay

Row | Substance | IC50, cytotoxicity assay of antibody-PE38 on D392 MG cells
1 | B305-PE38 immunotoxin (from UniProt P11439 278-389; P11439 406-638) | 0.006 µg/mL
2 | B308-PE38 immunotoxin (from UniProt P11439 278-389; P11439 406-638) | 0.006 µg/mL
3 | L04-PE38 immunotoxin (from UniProt P11439 278-389; P11439 406-638) | 0.015 µg/mL
4 | L12-PE38 immunotoxin (from UniProt P11439 278-389; P11439 406-638) | 0.02 µg/mL
5 | L15-PE38 immunotoxin (from UniProt P11439 278-389; P11439 406-638) | 0.03 µg/mL

Source: US20090252750A1
